A mixed list of measured activities; the numbers were collected in NIAID ChemDB.

Common to all: enzyme or target tests

Fold resistance: result on the changed form divided by that on wild type.

O=C(C1CCCCC1)N1C[C@H](CN2CCC(c3ccccc3)CC2)[C@@H](c2ccccc2)C1 ; read by: radiometric ; measure: IC50 ; mutations: CCR5-D276A ; target: CCR5 ; result: 0.072 µM
CN1CC[C@H](c2c(O)cc(O)c3c(=O)cc(-c4ccccc4F)oc23)[C@H](O)C1 ; read by: kinase activity ; measure: IC50 ; target: Cyclin-dependent kinase 7 ; result: 10 µM
CCCN(C(=O)COc1ccccc1)C1CCN(CCC(CN(C)S(=O)(=O)c2ccccc2)c2ccccc2)CC1 ; read by: radioligand binding / binding ; measure: IC50 ; target: CCR5 ; result: 0.005 µM
CN(CC(C)(CCN1CCC(N(CCO)C(=O)OCc2ccc([N+](=O)[O-])cc2)CC1)c1ccsc1)S(=O)(=O)c1ccccc1 ; read by: radiometric ; measure: fold resistance ; mutations: CCR5-Y251A ; target: CCR5 ; result: 25.5
Cc1nc2cc(Cl)c(Cl)cc2n1[C@@H]1O[C@H](CO)[C@@H](O)[C@H]1O ; measure: IC50 ; target: Protein kinase A ; result: >30 µM
NC[C@@H]1O[C@H](O[C@H]2[C@@H](O)[C@H](O[C@@H]3[C@@H](O)[C@H](N)C[C@H](N)[C@H]3O[C@H]3O[C@H](CN)[C@@H](O)[C@H](O)[C@H]3N)O[C@@H]2CO)[C@H](N)[C@@H](O)[C@@H]1O ; read by: flow cytometry ; measure: IC50 ; target: CXCR4 ; result: >10 µM
O=C(O[C@@H]1Cc2c(O)cc(O)cc2O[C@@H]1c1ccc(O)c(O)c1)c1cc(O)c(O)c(O)c1 ; read by: ELISA ; measure: inhibition ; dose: 200 µM ; target: CD4 ; result: 28%
NCCC[C@@H]1NC(=O)[C@H](CCCN=C(N)N)NC(=O)[C@@H](Cc2ccc(O)cc2)NC(=O)CNC(=O)[C@H](Cc2ccc3ccccc3c2)NC1=O ; read by: radiometric ; measure: IC50 ; target: CXCR4 ; result: 0.69 µM
CSc1sc(C(N)=O)c2c1-c1nocc1CC2 ; measure: IC50 ; target: Protein kinase C ; result: >30 µM
CNC(C)[C@H]1O[C@H](O[C@@H]2[C@@H](O)[C@H](O[C@@H]3OC[C@@](C)(O)[C@@H](NC)[C@@H]3O)[C@@H](NC(=O)[C@@H](N)CCCN=C(N)N)C[C@H]2NC(=O)[C@@H](N)CCCN=C(N)N)[C@H](NC(=O)[C@@H](N)CCCN=C(N)N)[C@@H](O)[C@@H]1O ; read by: flow cytometry ; measure: inhibition ; dose: 10 µM ; target: CXCR4 ; result: 84%
NC(N)=NCCC[C@@H]1NC(=O)[C@@H](Cc2ccc(O)cc2)NC(=O)CNC(=O)[C@H](Cc2ccc3ccccc3c2)NC(=O)[C@H](CCN=C(N)N)NC1=O ; read by: radiometric ; measure: IC50 ; target: CXCR4 ; result: 1.1 µM
CCCCCCCCCCCCCCCCOCC(Cl)COP(=O)([O-])OCC[N+](C)(C)C ; measure: inhibition ; dose: 19 µM ; target: Protein kinase C ; result: 74%
CN(CCC(=O)NN)C[C@H]1O[C@@H](n2cnc3c(N)ncnc32)[C@H](O)[C@@H]1O ; measure: IC50 ; target: S-adenosylmethionine decarboxylase ; result: 0.22 µM
COc1ccc(C[C@H]2NC(=O)CNC(=O)[C@H](Cc3ccc4ccccc4c3)NC(=O)[C@H](CCCN=C(N)N)NC(=O)[C@H](CCCN=C(N)N)NC2=O)cc1 ; read by: radiometric ; measure: IC50 ; target: CXCR4 ; result: 0.51 µM
CN(C[C@@H](CCN1CCC2(CC1)CC(=O)c1ccccc1O2)c1cccc(Cl)c1)S(=O)(=O)c1ccccc1 ; read by: radioligand binding / binding ; measure: inhibition ; dose: 1 µM ; target: CCR5 ; result: 42%
O=S(=O)(c1cccc2cnccc12)N1CCNCC1 ; measure: IC50 ; target: Protein kinase A ; result: 2 µM
NC(N)=NCCC[C@@H]1NC(=O)[C@H](CCCN=C(N)N)NC(=O)[C@@H](Cc2ccccc2)NC(=O)CNC(=O)[C@H](Cc2ccc3ccccc3c2)NC1=O ; read by: radiometric ; measure: IC50 ; target: CXCR4 ; result: 0.051 µM
CN(CCCNN)C[C@H]1O[C@@H](n2cnc3c(N)ncnc32)[C@H](O)[C@@H]1O ; measure: IC50 ; target: Ornithine decarboxylase ; result: 30 µM
NC(N)=NCCC[C@H](N)C(=O)NC[C@@H]1OC(O[C@H]2[C@@H](O)[C@H](O[C@@H]3[C@@H](O)[C@H](NC(=O)[C@@H](N)CCCN=C(N)N)C[C@H](NC(=O)[C@@H](N)CCCN=C(N)N)[C@H]3O[C@H]3O[C@H](CO)[C@@H](O)[C@H](O)[C@H]3NC(=O)[C@@H](N)CCCN=C(N)N)O[C@@H]2CO)[C@H](NC(=O)[C@@H](N)CCCN=C(N)N)[C@@H](O)[C@@H]1O ; read by: flow cytometry ; measure: inhibition ; dose: 10 µM ; target: CXCR4 ; result: 85%
CN(C[C@@H](CCN1CCC(C(C)(C)C)CC1)c1cccc(Cl)c1)S(=O)(=O)c1ccccc1 ; read by: radioligand binding / binding ; measure: inhibition ; dose: 10 µM ; target: CCR5 ; result: 74%
CC1CNCCN1S(=O)(=O)c1cccc2cnccc12 ; measure: IC50 ; target: Protein kinase C ; result: 1 µM
CC(C)CN(C(=O)O)C1CCN(CCC(CN(C)S(=O)(=O)c2ccccc2)c2ccccc2)CC1 ; read by: radioligand binding / binding ; measure: IC50 ; target: CCR5 ; result: 0.1 µM
C[C@@H]1NC(=O)[C@H](CCCN=C(N)N)NC(=O)[C@@H](Cc2ccc(O)cc2)NC(=O)CNC(=O)[C@H](Cc2ccc3ccccc3c2)NC1=O ; read by: radiometric ; measure: IC50 ; target: CXCR4 ; result: >1 µM
CN(CCCCON)C[C@H]1O[C@@H](n2cnc3c(N)ncnc32)[C@H](O)[C@@H]1O ; measure: IC50 ; target: S-adenosylmethionine decarboxylase ; result: 0.01 µM
C[C@@H]1NC(=O)[C@H](CCCN=C(N)N)NC(=O)[C@H](CCCN=C(N)N)NC(=O)[C@@H](Cc2ccc(O)cc2)NC(=O)CNC1=O ; read by: radiometric ; measure: IC50 ; target: CXCR4 ; result: >1 µM
NC(N)=NCCCC(N)C(=O)NC[C@H]1O[C@H](O[C@H]2[C@H](O)[C@@H](O)[C@H](N)C[C@@H]2N)[C@H](N)[C@@H](O)[C@@H]1O ; read by: flow cytometry ; measure: inhibition ; dose: 10 µM ; target: CXCR4 ; result: 5%
CCCOC(=O)N(CC1CCCCC1)C1CCN(CCC(CN(C)S(=O)(=O)c2ccccc2)c2ccccc2)CC1 ; read by: radioligand binding / binding ; measure: IC50 ; target: CCR5 ; result: 0.1 µM
NC(N)=NCCC[C@H](N)C(=O)NC[C@@H]1OC(O[C@H]2[C@@H](O)[C@H](O[C@@H]3[C@@H](O)[C@H](N)C[C@H](N)[C@H]3O[C@H]3O[C@H](CNC(=O)[C@@H](N)CCCN=C(N)N)[C@@H](O)[C@H](O)[C@H]3N)O[C@@H]2CO)[C@H](N)[C@@H](O)[C@@H]1O ; read by: flow cytometry ; measure: IC50 ; target: CXCR4 ; result: 10 µM
NC(N)=NCCC[C@@H]1NC(=O)[C@@H](Cc2ccc(O)cc2)NC(=O)CNC(=O)[C@H](Cc2ccc3ccccc3c2)NC(=O)[C@@H]2C[C@@H](N=C(N)N)CN2C1=O ; read by: radiometric ; measure: IC50 ; target: CXCR4 ; result: >1 µM
CCCN(C(=O)NCc1ccccc1)C1CCN(CCC(CN(C)S(=O)(=O)c2ccccc2)c2ccccc2)CC1 ; read by: radioligand binding / binding ; measure: IC50 ; target: CCR5 ; result: 0.002 µM

Repeating the first 3 entries:

| compound | read by | measure | dose | mutations | target | result |
|---|---|---|---|---|---|---|
| O=C(C1CCCCC1)N1C[C@H](CN2CCC(c3ccccc3)CC2)[C@@H](c2ccccc2)C1 | radiometric | IC50 | - | CCR5-D276A | CCR5 | 0.072 µM |
| CN1CC[C@H](c2c(O)cc(O)c3c(=O)cc(-c4ccccc4F)oc23)[C@H](O)C1 | kinase activity | IC50 | - | - | Cyclin-dependent kinase 7 | 10 µM |
| CCCN(C(=O)COc1ccccc1)C1CCN(CCC(CN(C)S(=O)(=O)c2ccccc2)c2ccccc2)CC1 | radioligand binding / binding | IC50 | - | - | CCR5 | 0.005 µM |

Conditions beyond the fields shown may differ between rows. Inhibition is in % at the dose shown (toxicity tests: loss of growth or viability). An empty or dashed field is not shown. ICn: concentration for n% inhibition.